Results on 1 substance are retold here after patent US5149778A (Bio-Mega, Inc., priority 1989, dated 1992).

This data set is described as follows: peptide synthesis. Conditions: whole synthesis, analytical HPLC.

Strings that start with PEPTIDE1 are HELM notation: dots part the residues, brackets hold end groups and non-standard residues.

On to “PEPTIDE1{Y.V.I.D.D.L}$PEPTIDE1,PEPTIDE1,1:R1-4:R3$$$V2.0”, for which the “final HPLC purity” value is “at least 95% homogeneous”.
